The test system of this series is MT2. The series is described as follows: Cytotoxicity against human MT2 cells infected with HIV1 NL4.3 by MTT assay. The series is classed as cell-based.

In general, CC50 refers to the concentration giving 50% cytotoxicity.

With `Cc1cc(C#N)cc(C)c1Oc1nc(Nc2ccc(C#N)cc2)nc(N)c1Br` [ETRAVIRINE], the CC50 came out at 11 µM.
